Data on one substance can be found in patent US20030032582A1.

Among the targets are TCR Vβ2 (human); TCR Vβ5 (human); TCR Vβ8 (human).
Holding throughout (experiment): cell-based or functional assay

Regarding H-TSST(88-194) (ligand), in the test with TCR Vβ2 (human), the CD3^+ Blasts Binding Anti-Vβ (%) is 29%; the CD3^+ Blasts Binding Anti-Vβ, fold difference versus unstimulated controls is 3 fold; the CD3^+ Lymphocytes Binding Anti-Vβ (%) was 5.8%; the CD3^+ Lymphocytes Binding Anti-Vβ, fold difference versus unstimulated controls was found to be 0.6 fold. In the test with TCR Vβ5 (human), the CD3^+ Blasts Binding Anti-Vβ (%) was found to be 5.4%; the CD3^+ Blasts Binding Anti-Vβ, fold difference versus unstimulated controls was found to be 2.4 fold; the CD3^+ Lymphocytes Binding Anti-Vβ (%) worked out at 3.2%; the CD3^+ Lymphocytes Binding Anti-Vβ, fold difference versus unstimulated controls worked out at 1.4 fold. In addition, in the test with TCR Vβ8 (human), the CD3^+ Blasts Binding Anti-Vβ (%) came to 5.2%; the CD3^+ Blasts Binding Anti-Vβ, fold difference versus unstimulated controls is 1.3 fold; the CD3^+ Lymphocytes Binding Anti-Vβ (%) amounted to 4.2%; the CD3^+ Lymphocytes Binding Anti-Vβ, fold difference versus unstimulated controls is 1 fold.
